Reference: article PMC4595672
Construct, isoform or probe ends are uncertain for at least one entry.

Legend:
[1] = target: His-CRP (cAMP receptor protein) (UniProt O34015); test: competition with a labelled probe; details: 100 uM cAMP, 100-fold excess partial, 300-fold abolishes shift of labelled 152-bp probe, 50 mM Tris-HCl pH 7.8, 250 mM KCl, 5 mM MgCl2, 2.5 mM EDTA, 0.5 mM MnCl2, 2.5 mM DTT, 1 ug poly(dI.dC), 10 ul, room temperature 30 min, recombinant protein, protein details: 6xHis, probe letters rebuilt from the primers and the genome
[2] = target: His-CRP (cAMP receptor protein) (UniProt O34015); test: EMSA; details: 100 uM cAMP, 50 mM Tris-HCl pH 7.8, 250 mM KCl, 5 mM MgCl2, 2.5 mM EDTA, 0.5 mM MnCl2, 2.5 mM DTT, 1 ug poly(dI.dC), 10 ul, room temperature 30 min, recombinant protein, protein details: 6xHis, label: 5' biotin, probe letters rebuilt from the primers and the genome

Question: Does “GTTCGTATGAGCTTGCTTGTTTTATGAAGCTAATGATAGTTTACGAAGAGAAATAAGTCTGGACTTATCTCACATCGATGCAATACTTTTGCGCCAGATTATGAGACCAGTATCACATCGTCAATTTTTTGTTGCTCCTCTATACTTAAACC (double strand) [tfoXVC promoter 152-bp unlabelled competitor]” bind [1]?
Answer: Result: binds

Question: Does “GTTCGTATGAGCTTGCTTGTTTTATGAAGCTAATGATAGTTTACGAAGAGAAATAAGTCTGGACTTATCTCACATCGATGCAATACTTTTGCGCCAGATTATGAGACCAGTATCACATCGTCAATTTTTTGTTGCTCCTCTATACTTAAACC (double strand) [tfoXVC promoter 152-bp probe (CBS1+CBS2)]” bind ([2]; shift at 0.11 uM CRP, second higher shift >0.88 uM)?
Answer: Result: binds

Question: Does “GGTTTAAGTATAGAGGAGCAACAAAAAATTGACGATGTGATACTGGTCTCATAATCTGGCGCAAAAGTATTGCAT (double strand) [probe-CBS1 75 bp]” bind ([2]; single shifted band at 0.11 uM CRP)?
Answer: Result: binds
